Pooled drug test results. Numbers come from NIAID ChemDB, via PubChem.

All rows: enzyme or target tests; organism: HIV-1; target: Reverse transcriptase; read by: RT activity; read-out: IC50

Lines come from different laboratories, so protocols vary. ICn: concentration for n% inhibition. Blank or dashed fields: not listed here.

smiles | strain | changes | result
CCOC(=O)/C=C/c1c(-c2cccs2)[nH]c2ccccc12 |  |  | 0.00797 µM
Cc1c(Cl)ccc2cc(/C=C/c3csc(Cl)c3)c(Cl)nc12 |  |  | 0.13 µg/mL
O=C1C[C@@H](c2ccc(O)cc2)Oc2cc(O)cc(O)c21 |  |  | >735 µM
Cc1c(Cl)ccc2cc(/C=C/C(=O)c3ccccc3Br)c(Cl)nc12 |  |  | 0.3 µg/mL
O=Cc1c(-c2cccs2)[nH]c2ccccc12 |  |  | 0.00938 µM
Cc1cccc(-c2ccccc2)c1Oc1nc(N)nc(NCc2ccc3occc3c2)n1 |  |  | 100 µM
Cc1ccc(S(=O)(=O)n2cc(-c3cccc([N+](=O)[O-])c3)c3ccccc32)cc1 |  | Y181C | 27 µM
O=C(CCCCCCCCC(=O)Nc1ccc(S(=O)(=O)O)c2ccccc12)Nc1ccc(S(=O)(=O)O)c2ccccc12 |  |  | >50 µM
CCOC(=O)c1[nH]c2ccc(Cl)cc2c1S(=O)(=O)c1cc(Cl)ccc1N | IIIB |  | 4.7 µM
C/C1=C\C=C\C2(C)C=C(CO[C@H]3O[C@H](CO)[C@H](O)[C@H](O)[C@H]3O)C(C)CC23OC([O-])C(C3=O)C(O)/C=C/C2(C)C=C(C=O)C(C)CC23OC([O-])C(C3=O)C(O)/C(C)=C/C=C/C2C=C(CO[C@H]3O[C@H](CO)[C@H](O)[C@H](O)[C@H]3O)C(C)CC23OC([O-])C(C3=O)C(O)/C=C/C2(C)C=C(C=O)C(C)CC23OC([O-])C(C3=O)C1O | IIIB |  | 0.8 µg/mL
CC(C)OP(=O)(OC(C)C)C(O)c1c(-c2cccs2)[nH]c2ccccc12 |  |  | 0.00917 µM
CCCc1c(Sc2ccccc2)n(COCCO)c(=O)[nH]c1=O |  |  | 11 µM
Cc1cc(C)cc(S(=O)(=O)c2[nH]c3ccccc3c2-c2cccc([N+](=O)[O-])c2)c1 |  | WT | 20 µM
CC(C)=CCN1Cc2cc(Cl)cc3[nH]c(=O)n(c23)C[C@@H]1C |  | RT-L100I | 31 µM
Cc1csc(/C=C/c2cc3ccc(Cl)c(C)c3nc2Cl)c1 |  |  | 0.19 µg/mL
CCCCCCCCCCCCCCCC(=O)Nc1c(O)cc(S(=O)(=O)O)c2ccccc12 |  |  | <50 µM
NCC1OC(n2cnc3c(N)ncnc32)C(OP(=O)(O)OCC2OC(n3cnc4c(N)ncnc43)C(OP(=O)(O)OCCOCn3cnc4c(N)ncnc43)C2O)C1O | IIIB |  | <100 µM
Cc1cc(C)cc(S(=O)(=O)c2c(C(=O)NC(C)C(N)=O)[nH]c3ccc(Br)cc23)c1 |  | K103N | 0.555 µM
O=C1CC2c3cccn3S(=O)(=O)c3ccccc3N12 | IIIB |  | 17 µM
C=C(C)C1CC[C@@H]2CC[C@]3(C)C(CCC4[C@@]5(C)CC[C@H](O)C(C)(C)C5CC[C@]43C)C12 |  |  | 67.2 µg/mL
O=c1nc(NCc2ccc3cc[nH]c3c2)nc(Nc2cccc(Oc3ccccc3)c2)[nH]1 |  |  | 100 µM
CCCCCCCCCCCCCCCC(=O)NCC1CC(OP(=O)(O)OCC2OC(n3cnc4c(N)ncnc43)C(OP(=O)(O)OCC3OC(n4cnc5c(N)ncnc54)C(O)C3O)C2O)C(n2cnc3c(N)ncnc32)O1 | IIIB |  | <100 µM
COc1cc(-c2ccc(N=Nc3ccc4c(S(=O)(=O)O)cc(S(=O)(=O)O)c(N)c4c3O)c(OC)c2)ccc1N=Nc1ccc2c(S(=O)(=O)O)cc(S(=O)(=O)O)c(N)c2c1O | RF |  | 13 µM
Cc1cc(C)cc(S(=O)(=O)c2c(C(=O)NC(C)C(N)=O)[nH]c3ccc(Cl)cc23)c1 |  | NNRTI-resistant (RT K103N) | 0.782 µM
CCN1c2ncc(CCc3ccccc3)cc2C(=O)N(C)c2ccc(Cl)nc21 | IIIB | RT-K103N | 0.05 µM
COc1ccccc1-c1cn(S(=O)(=O)c2ccc3ccccc3c2)c2ccccc12 |  | K103N | 63 µM
C=C(C)C1CC[C@]2(C(=O)O)CC[C@]3(C)C(CCC4[C@@]5(C)C[C@@H](C(=O)[O-])[C@H](O)C(C)(C)C5CC[C@]43C)C12 |  |  | 116.9 µg/mL
COP(=O)(c1cc(C)cc(CCC#N)c1)c1c(C(N)=O)[nH]c2ccc(Cl)c(F)c12 |  | Y181C/K103N | 1.411 µM
Cc1cc(=O)c2c(O)c3c(O)cc(O)c4c5c(O)cc(O)c6c(O)c7c(=O)cc(CO)c8c1c2c(c34)c(c65)c78 |  |  | <20 µg/mL
O=S1(=O)c2ccccc2-n2cnnc2-c2cccn21 | IIIB |  | 52 µM
Cc1cn(S(=O)(=O)c2ccc(C(C)(C)C)cc2)c2ccccc12 |  | WT | 62 µM
CCN1c2ncc(CCc3ccncc3)cc2C(=O)N(C)c2ccc(Cl)nc21 | IIIB | RT-Y181C | 0.12 µM
O=S(=O)(O)c1cccc2ccc(OS(=O)(=O)c3cccc4c(S(=O)(=O)Oc5ccc6cccc(S(=O)(=O)O)c6c5)cccc34)cc12 |  |  | <50 µM
CC(=O)/C=C/c1c(-c2cccs2)[nH]c2ccccc12 |  |  | 0.00455 µM
Nc1ccc2cc(S(=O)(=O)O)cc(O)c2c1N=Nc1ccc(NC(=O)Nc2ccc(N=Nc3c(N)ccc4cc(S(=O)(=O)O)cc(O)c34)c(S(=O)(=O)O)c2)cc1S(=O)(=O)O | RF |  | 4.6 µM
O=P(O)(O)OP(=O)(O)OP(=O)(O)OC[C@H]1O[C@@H](n2ccc3c(Cl)ncnc32)C[C@@H]1F |  |  | 304 µM
NC(=O)c1[nH]c2ccc(Cl)cc2c1S(=O)(=O)c1ccccc1 | IIIB |  | 0.3 µM
CC(C)(Nc1nc(Nc2c(F)cccc2-c2ccccc2)[nH]c(=O)n1)c1ccc2c(c1)OCO2 |  |  | 100 µM
Cc1c(Cl)ccc2cc(/C=C/C(=O)c3ccc(Cl)cc3)c(Cl)nc12 |  |  | 0.11 µg/mL
CCCOCn1c(Sc2ccccc2)c(C)c(=O)[nH]c1=O |  |  | 34 µM
Nc1ccc(S(=O)(=O)O)c2ccccc12 |  |  | >50 µM
CCOC(=O)c1[nH]c2ccc(Cl)cc2c1Sc1ccccc1N | IIIB |  | 6.5 µM

The last 5 rows once more:

smiles	strain	changes	result
CC(C)(Nc1nc(Nc2c(F)cccc2-c2ccccc2)[nH]c(=O)n1)c1ccc2c(c1)OCO2			100 µM
Cc1c(Cl)ccc2cc(/C=C/C(=O)c3ccc(Cl)cc3)c(Cl)nc12			0.11 µg/mL
CCCOCn1c(Sc2ccccc2)c(C)c(=O)[nH]c1=O			34 µM
Nc1ccc(S(=O)(=O)O)c2ccccc12			>50 µM
CCOC(=O)c1[nH]c2ccc(Cl)cc2c1Sc1ccccc1N	IIIB		6.5 µM